Experimental data as given in PMC10891539, “Plant Extracts and Phytochemicals from the Asteraceae Family with Antiviral Properties” (Molecules, 2024).
Where “and” joins values, the source holds several entries; their conditions need not be identical. Equal entries are not always repeated.

Each compound was assayed on DENV-2 (assay: Antiviral activity, virus yield inhibition assay (plaque assay) against DENV-2 in Vero cells). Conditions: pure phytochemicals; selectivity index: ratio CC50/EC50.
Type: cell-based, dengue virus (DENV-2 strain NGC)
Description: Figure 3 Antiviral activity of dichloromethane (A) and methanolic extracts (B) and against DENV-2 in Vero cells. Cells were infected with DENV-2 (m.o.i. 0.1 PFU/cell) and, after 1 h adsorption at 37 °C, were treated with medium containing different dilutions of the dichloromethane extracts or vehicle. After 48h of infection, viral yield was determined via plaque assay. […] Results are expressed as the mean values ± standard deviation (SD).
Figure 4 Antiviral activity of pure compounds against DENV-2 in Vero cells. Cells were infected with DENV-2 (m.o.i. 0.1 PFU/cell) and, after 1 h adsorption at 37 °C, were treated with medium containing different dilutions of the pure compounds or vehicle (dimethyl sulfoxide). After 48 h of infection, viral yield was determined via plaque assay. Results are expressed as the mean values ± standard deviation (SD).
Vero (African green monkey kidney, ATCC CCL-81) cells were grown in Eagle’s minimum essential medium (MEM, Gibco™ Thermo Fisher Scientific, Waltham, MA, USA) supplemented with 5% heat-inactivated newborn bovine serum (NBS, Gibco™ Thermo Fisher Scientific, Carlsbad, CA, USA) and 1.5 g/L of sodium bicarbonate in a 5% CO2 atmosphere. For the maintenance medium (MM), the serum concentration was reduced to 1.5%. The C6/36 HT mosquito cell line from Aedes albopictus (ATCC CRL-1660), adapted to grow at 33 °C, was cultured in L-15 Medium (Leibovitz) supplemented with 0.3% tryptose phosphate broth, 0.02% glutamine, 1% MEM non-essential amino acids solution, and 5% FBS. The original stock of DENV-2 strain NGC was prepared in C6/36 cells and titrated via plaque formation in Vero cells.
Antiviral activity was evaluated with a virus yield inhibition assay. […] The concentration of the solvent used for the control was the maximum present in the highest concentration of the extract or compound evaluated. […] Finally, cell monolayers were fixed with 10% formaldehyde, washed, and stained with a 1% solution of crystal violet, and PFU were counted. […]
C=C(C)c1cc2cc(C(C)=O)c(O)cc2o1 [Compound 8, euparin] gave an SI of over 73.4.
C=C1CC[C@H]2C(=C)C(=O)O[C@@H]2[C@H]2C(C)=CC(=O)[C@@H]12 [Compound 6, 2-oxo-8-deoxyligustrin] was tested, and the SI was 5.9 and 5.86.
For C=C1C(=O)O[C@@H]2/C=C(\C)[C@@H](O)C/C=C(\C)C[C@@H](OC(=O)/C(=C/CO)COC(C)=O)[C@@H]12 [Compound 7, santhemoidin C], the SI was 6.7 and 6.74.
